A mixed list of measured activities; the numbers were collected in NIAID ChemDB.

Common to all: enzyme or target tests

Inhibition is in % at the dose shown (toxicity tests: loss of growth or viability).

| structure | agent | strain or isolate | mutations | protein | method | endpoint | dose | value |
|---|---|---|---|---|---|---|---|---|
| COc1ccc(S(=O)(=O)N(C[C@@H](O)[C@H](Cc2ccccc2)NC(=O)CC(C)CS(C)(=O)=O)CC(C)(C)CCC#N)cc1 | HIV-1 | - | - | Protease | fluorescence | Ki | - | <0.001 µM |
| CC(C)(C)NC(=O)[C@@H]1CCCN1C(=O)[C@@H](O)[C@H](Cc1ccccc1)NC(=O)[C@H](CC(N)=O)NC(=O)COC(c1cccc(Cl)c1)c1cccc(Cl)c1 | HIV-1 | - | - | Protease | - | inhibition | 0.05 µM | 63% |
| CC(C)(C)C(=O)c1cn2ccn(CCCc3c(F)cccc3Cl)c(=O)c2c(O)c1=O | HIV-1 | - | - | Integrase | ELISA | IC50 | - | <0.01 µM |
| CC(C)(C)NC(=O)[C@@H]1CCCN1C(=O)[C@@H](O)[C@H](Cc1ccccc1)NC(=O)[C@H](CC(N)=O)NC(=O)c1nccc2ccccc12 | HIV-1 | - | - | Protease | - | inhibition | 0.05 µM | 27.2% |
| Nc1nc2c(ncn2[C@H]2CC[C@@H](COP(=O)(O)OP(=O)(O)OP(=O)(O)O)O2)c(=O)[nH]1 | HIV | - | RT-F61L | Reverse transcriptase | nucleotide incorporation | fold resistance | - | 1 |
| CC[C@@H](C)[C@H](NC(=O)[C@@H]1CCCN1C(=O)[C@@H](O)[C@H](Cc1ccccc1)NC(=O)[C@H](CC(N)=O)NC(=O)CCc1ccccc1)C(N)=O | HIV-1 | - | - | Protease | - | inhibition | 5 µM | 43% |
| CC(C)CC(=O)NCCCCC(C)(C)CN(C[C@@H](O)[C@H](Cc1ccccc1)NC(=O)O[C@H]1CO[C@H]2OCC[C@H]21)S(=O)(=O)c1ccc2c(c1)OCO2 | HIV-1 | - | - | Protease | fluorescence | Ki | - | <0.001 µM |
| COC(=O)[C@@H]1CCCCN1C(=O)[C@@H]1CSCN1C(=O)[C@@H](O)[C@H](Cc1ccccc1)NC(=O)[C@H](CS(C)(=O)=O)NC(=O)COc1cccc2ccccc12 | HIV-1 | - | - | Protease | - | inhibition | 0.05 µM | 9.2% |
| CC(C)(CCCCN=C(NC#N)Oc1ccccc1)CN(C[C@@H](O)[C@H](Cc1ccccc1)NC(=O)O[C@H]1CO[C@H]2OCC[C@H]21)S(=O)(=O)c1ccc2c(c1)OCO2 | HIV-1 | - | - | Protease | fluorescence | Ki | - | <0.001 µM |
| CC(O)c1cn(Cc2cccc(Cl)c2)c(=O)c2c(O)c(=O)ccn12 | HIV-1 | - | - | Integrase | ELISA | IC50 | - | 0.01–0.1 µM |
| CC(C)(C)NC(=O)[C@H]1N(C(=O)[C@@H](O)[C@H](Cc2ccccc2)NC(=O)[C@H](CC(N)=O)NC(=O)COc2cccc(Cl)c2)CSC1(C)C | HIV-1 | - | - | Protease | - | inhibition | 0.05 µM | 97.7% |
| CC(C)(CCCCNC(=O)c1cccs1)CN(C[C@@H](O)[C@H](Cc1ccccc1)NC(=O)O[C@H]1CO[C@H]2OCC[C@H]21)S(=O)(=O)c1ccc2c(c1)OCO2 | HIV-1 | - | - | Protease | fluorescence | Ki | - | <0.001 µM |
| CCCOc1cc(Cl)ccc1CN1CCn2cc(-c3nccs3)c(=O)c(O)c2C1=O | HIV-1 | - | - | Integrase | ELISA | IC50 | - | 0.01–0.1 µM |
| CCOC(=O)NCCCCC(C)(C)CN(C[C@@H](O)[C@H](Cc1ccccc1)NC(=O)O[C@H]1CO[C@H]2OCC[C@H]21)S(=O)(=O)c1cccc(NC)c1 | HIV-1 | - | - | Protease | fluorescence | Ki | - | <0.001 µM |
| O=c1c(-c2nccs2)cn2ccn(Cc3cccc(Cl)c3)c(=O)c2c1O | HIV-1 | - | - | Integrase | ELISA | IC50 | - | <0.01 µM |
| CC(C)(CCCCNS(C)(=O)=O)CN(C[C@@H](O)[C@H](Cc1ccccc1)NC(=O)O[C@H]1CCOC1)S(=O)(=O)c1ccc(N)cc1 | HIV-1 | - | - | Protease | fluorescence | Ki | - | <0.001 µM |
| Nc1nc2c(ncn2[C@H]2CO[C@@H](COP(=O)(O)OP(=O)(O)OP(=O)(O)O)O2)c(=O)[nH]1 | HIV | - | RT-D67N K70R T215Y K219Q | Reverse transcriptase | radiometric | fold resistance | - | 1.2 |
| COc1ccnc2[nH]cc(C(=O)C(=O)N3CCN(C(=O)c4ccccc4)C[C@H]3C)c12 | HIV-1 | NL4-3 | GP120-R350K | gp120 | ELISA | fold resistance | - | 1 |
| NC(=O)C[C@H](NC(=O)[C@@H](N)Cc1ccccc1)C(=O)N[C@@H](Cc1ccccc1)[C@H](O)C(=O)NCC1CCCCC1 | HIV-1 | - | - | Protease | - | inhibition | 1000 µM | 83.6% |
| CC(CCC=O)CCN(C[C@@H](O)[C@H](Cc1ccccc1)NC(=O)OC(C)(C)C)S(=O)(=O)c1cccc2c1OCO2 | HIV-1 | - | - | Protease | fluorescence | Ki | - | 0.001–0.01 µM |
| CCN(C)C(=O)c1cc(=O)c(O)c2n1CCN(Cc1ccc(Cl)c(Cl)c1)C2=O | HIV-1 | - | - | Integrase | ELISA | IC50 | - | <0.01 µM |
| CC(C)(CCNC(=S)NC(C)(C)C)CN(C[C@@H](O)[C@H](Cc1ccccc1)NC(=O)O[C@H]1CO[C@H]2OCC[C@H]21)S(=O)(=O)c1ccc2c(c1)OCO2 | HIV-1 | - | - | Protease | fluorescence | Ki | - | <0.001 µM |
| CSc1cn2ccn(Cc3cccc(Cl)c3)c(=O)c2c(O)c1=O | HIV-1 | - | - | Integrase | ELISA | IC50 | - | 0.01–0.1 µM |
| CC(C)(C)OC(=O)N[C@@H](Cc1ccccc1)C(=O)N[C@@H](CC(N)=O)C(=O)N[C@@H](Cc1ccccc1)[C@H](O)C(=O)NCC1CCCCC1 | HIV-1 | - | - | Protease | - | IC50 | - | <1000 µM |
| O=C1c2c(O)c(=O)c(-c3nccs3)cn2CCN1CCCc1cccc(Cl)c1 | HIV-1 | - | - | Integrase | ELISA | IC50 | - | 0.01–0.1 µM |
| CC(C)(CCCNC(=O)C1CCCC1)CN(C[C@@H](O)[C@H](Cc1ccccc1)NC(=O)O[C@H]1CO[C@H]2OCC[C@H]21)S(=O)(=O)c1ccc2c(c1)OCO2 | HIV-1 | - | - | Protease | fluorescence | Ki | - | <0.001 µM |
| O=C1c2c(O)c(=O)ccn2CCN1Cc1ccccc1Cl | HIV-1 | - | - | Integrase | ELISA | IC50 | - | 0.1–1 µM |
| CCC[C@H](NC(=O)COc1cccc2ccccc12)C(=O)N[C@@H](Cc1ccccc1)[C@H](O)C(=O)N1CSC[C@H]1C(=O)NC(C)(C)C | HIV-1 | - | - | Protease | - | inhibition | 0.05 µM | 89.3% |

The last 2 rows once more:

O=C1c2c(O)c(=O)ccn2CCN1Cc1ccccc1Cl ; agent: HIV-1 ; protein: Integrase ; method: ELISA ; endpoint: IC50 ; value: 0.1–1 µM
CCC[C@H](NC(=O)COc1cccc2ccccc12)C(=O)N[C@@H](Cc1ccccc1)[C@H](O)C(=O)N1CSC[C@H]1C(=O)NC(C)(C)C ; agent: HIV-1 ; protein: Protease ; endpoint: inhibition ; dose: 0.05 µM ; value: 89.3%

Neighbouring rows are from separate reports. Two numbers with a dash give a range or band. ICn: concentration for n% inhibition. Blank or dashed fields: not listed here. Fold resistance: result on the changed form divided by that on wild type.